Results of unrelated studies side by side (data: NIAID ChemDB).

All rows: whole-cell or culture tests

Blank or dashed fields: not listed here. a–b is a range or a potency band. Percent inhibition refers to the dose given; in toxicity tests it is the harm to the cells. Rows are shuffled and stem from different studies. MIC50, MIC90 and the like: level of inhibition, or share of isolates inhibited. ECn: concentration that inhibits the pathogen or its effect by n%. Fold resistance: result on the changed form divided by that on wild type.

smiles,strain or isolate,tested at,read-out,cells,organism,method,mutations,value
Nc1ncnc2c1ncn2[C@@H]1C=C(CO)[C@@H](O)[C@H]1O,LONG,,EC50,HeLa,Respiratory syncytial virus,cytopathic effect,,>20 µg/mL
N/C(=N\O)c1ccc(C(=O)Nc2ccc(NC(=O)c3ccc(/C(N)=N/O)cc3)cc2)cc1,,,EC50,A549,Pneumocystis carinii,,,83.3 µg/mL
NC(=O)c1c[se]c([C@@H]2O[C@H](CO)[C@@H](O)[C@H]2O)n1,,,EC50,VERO 76,Pichinde virus,antigen,,<1 µg/mL
O=C(O)CP(=O)(O)O,KOS GCV-resistant,,EC50,HEL,Herpes simplex virus 1,cytopathic effect,,16 µg/mL
c1ccc([Se][Se]c2ccccc2)cc1,ATCC 66035,,MFC,,Candida lusitaniae,broth dilution,,>64 µg/mL
Nc1ncnc2c1ncn2C[C@@H](CF)OCP(=O)(O)O,GS,,EC50,HSB-2,Human herpesvirus 6,cytopathic effect,,>300 µM
Nc1nc(N)c2ncn(CCOCP(=O)(O)O)c2n1,PMEDAP-resistant,,EC50,HEL,Varicella zoster virus,plaque count,,7.6 µg/mL
N=C(N)c1ccc2[nH]c(C(=N)N)cc2c1,LONG,,EC50,HeLa,Respiratory syncytial virus,cytopathic effect,,>25 µg/mL
C#CC[C@@H](C(=O)N[C@H](/C=C/C(=O)OCC)C[C@@H]1CCNC1=O)n1cccc(NC(=O)c2cc(C)on2)c1=O,Serotype 16,0.098 µM,inhibition,H1-HELA,Rhinovirus,cytopathic effect / XTT,,90%
Nc1nc(=O)n([C@@H]2O[C@H](CO)[C@@H](O)[C@@H]2F)cc1I,KOS S2242-resistant,,EC50,HEL,Herpes simplex virus 1,cytopathic effect,,0.007 µg/mL
O[C@@H]1CC(n2cnc3cc(Cl)c(Cl)cc32)OC[C@@H]1O,TYPE 1,,EC50,HeLa,Reovirus,cytopathic effect,,>150 µg/mL
CC1CN(Cn2c(O)c(N=NC(N)=S)c3ccccc32)CCN1Cn1c(O)c(N=NC(N)=S)c2ccccc21,KOS,,EC50,HeLa,Herpes simplex virus 1,cytopathic effect,,>200 µg/mL
Oc1ccc2oc3ccccc3c2c1,TYPE 16,,EC50,HELA-H1,Rhinovirus,cytopathic effect,,30 µM
Nc1ncnc2c1ncn2C[C@@H](CO)OCP(=O)(O)O,,,EC50,,Punta Toro virus,cytopathic effect,,>50 µM
Nc1nc2c(ncn2CCC(CO)CO)c(=O)[nH]1,KOS GCV-resistant,,EC50,HEL,Herpes simplex virus 1,cytopathic effect,,>20 µg/mL
C[C@@]1(O)[C@H](O)[C@@H](CO)O[C@H]1c1coc2c(N)ncnc12,,10 µg/mL,inhibition,HepG2-5B,Hepatitis C virus,MTT,,0%
O=C(O)P(=O)(O)O,PMEDAP-resistant,,EC50,HEL,Varicella zoster virus,plaque count,,42.4 µg/mL
N/C(=N\O)c1ccc(NC(=O)c2ccc(C(=O)Nc3ccc(/C(N)=N/O)cc3)cc2)cc1,,,EC50,A549,Pneumocystis carinii,,,>100 µg/mL
C[C@H](Cn1cnc2c(N)ncnc21)OCP(=O)(O)O,AD169,,EC50,,Cytomegalovirus,cytopathic effect,,>350 µM
NC(=O)c1ncn([C@@H]2O[C@H](CO)[C@@H](O)[C@H]2O)n1,,,EC50,VERO 76,Pichinde virus,antigen,,4.6 µg/mL
C[C@H]1NCc2cc(-c3ccc4c(=O)c(C(=O)O)cn(C5CC5)c4c3OC(F)F)ccc21,18 strains (beta-lactamase-negative),,MIC90,,Haemophilus influenzae,,,0.03 µg/mL
Nc1ccn([C@@H]2C[C@H](CO)[C@@H](O)[C@H]2O)c(=O)n1,S-8,,EC50,HeLa,Respiratory syncytial virus,cytopathic effect,,>100 µg/mL
COC(=O)Nc1nc2ccccc2[nH]1,ATCC 14116,,EC50,,Cryptococcus neoformans,,,<2.3 µg/mL
N/C(=N\O)c1ccc(C(=O)Nc2cccc(NC(=O)c3ccc(/C(N)=N/O)cc3)c2)cc1,,,EC50,A549,Pneumocystis carinii,,,15.1 µg/mL
CN(C)[C@@H]1C(=O)C(C(N)=O)=C(O)[C@@]2(O)C(=O)C3=C(O)c4c(O)c(NC(=O)CNC(F)(F)F)cc(F)c4C[C@H]3C[C@@H]12,111-27853,,EC50,,Pseudomonas aeruginosa,agar diffusion,,>32 µg/mL
OC[C@H]1O[C@@H](n2cnc3cc(Cl)c(Cl)cc32)[C@H](O)[C@H]1O,,,EC50,HeLa,Sindbis virus,cytopathic effect,,>100 µg/mL
CC(=O)NC[C@H]1CN(c2ccc(N3CCOCC3)c(F)c2)C(=O)O1,Oxacillin-resistant,,MIC90,,Staphylococcus aureus,,,1–4 µg/mL
Cc1ccnc2c1NC(=O)c1cccnc1N2C1CC1,HXB2,,EC50,HT4 + HT4 LacZ-1,HIV-1,plaque count,,0.06 µM
C(=N\Nc1ccccc1)/c1ccc(N2CCN(c3ccc(/C=N/Nc4ccccc4)cc3)CC2)cc1,,,EC50,A549,Pneumocystis carinii,,,>100 µg/mL
OCCOC(CCO)n1cnc2cc(Cl)c(Cl)cc21,,,EC50,HeLa,Sindbis virus,cytopathic effect,,>100 µg/mL
Nc1ncnc2c1ncn2CCOCP(=O)(O)O,Ganciclovir-resistant,,EC50,C1271,Mouse cytomegalovirus,plaque count,,2.4 µM
Cn1c2ccccc2c2c1cc(C#N)c(=O)n2-c1ccc([N+](=O)[O-])cc1,NRTI resistant,,EC50,HeLa,HIV-1,luciferase,RT-M41L E44D D67N T69D V118I M184V L210W T215Y,0.304 µM
Nc1ncnc2c1ncn2[C@@H]1O[C@H](CO)[C@@H](O)[C@@H]1O,KOS PMEDAP-resistant,,EC50,HEL,Herpes simplex virus 1,cytopathic effect,,19.6 µg/mL
Nc1ncnc2c1ncn2CCOCP(=O)(O)O,GS,,EC50,HSB-2,Human herpesvirus 6,cytopathic effect,,30 µM
Nc1ncnc2c1ncn2C[C@@H](CO)OCP(=O)(O)O,Ganciclovir-resistant,,EC50,C1271,Mouse cytomegalovirus,plaque count,,8.5 µM
CC(C)(C)C(=O)OCOP(=O)(COCCn1cnc2c(N)ncnc21)OCOC(=O)C(C)(C)C,GS,,EC50,HSB-2,Human herpesvirus 6,cytopathic effect,,0.56 µM
C[C@@]1(O)[C@H](O)[C@@H](CO)O[C@H]1c1c[nH]c2c(N)ncnc12,,10 µg/mL,inhibition,HepG2-T5B,Hepatitis C virus,MTT,,0%
CCCN=C(N)c1ccc(N2CCN(c3ccc(C(N)=NCCC)cc3)CC2)cc1,,,EC50,A549,Pneumocystis carinii,,,1.6 µg/mL
CO[C@H]1[C@@H](O)[C@@H](C)O[C@H](O[C@H]2[C@H](Oc3cccc4c(O)c5c(=O)oc6ccc(C)c7c(=O)oc(c34)c5c67)O[C@H](C)[C@H](O)[C@@H]2O)[C@@H]1O,KOS,,EC50,HeLa,Herpes simplex virus 1,cytopathic effect,,>200 µg/mL
O=C(O)P(=O)(O)O,KOS,,EC50,HEL,Herpes simplex virus 1,cytopathic effect,,29.6 µg/mL
C[C@H]1CN(c2c(F)cc3c(=O)c(C(=O)O)cn(C4CC4)c3c2OC(F)F)CCN1,10 strains,,MIC90,,Enterococcus faecium,,,4 µg/mL
NC(=O)c1[nH]nc([C@@H]2O[C@H](CO)[C@@H](O)[C@H]2O)c1O,58-17,,EC50,HeLa,Respiratory syncytial virus,cytopathic effect,,0.08 µg/mL
O=C(O)CP(=O)(O)O,BVDU-resistant,,EC50,HEL,Varicella zoster virus,plaque count,,8.3 µg/mL
Nc1ncnc2c1ncn2[C@@H]1C=C(CO)[C@@H](O)[C@H]1O,TYPE 3,,MIC,,Parainfluenza virus,,,0.2 µg/mL
CCC[C@H](NC(=O)[C@@H]1[C@H]2CCC[C@H]2CN1C(=O)[C@@H](NC(=O)[C@@H](NC(=O)c1cnccn1)C1CCCCC1)C(C)(C)C)C(=O)C(=O)NC1CC1,J6,,EC50,Huh7.5,Hepatitis C virus,antigen,,0.844 µM
NC(=O)c1nc(F)c[nH]c1=O,Influenza A/Kitakyushu/159/93 (H3N2),,EC50,MDCK,Influenza A virus,plaque count,,0.48 µg/mL
NC(=O)c1ncn([C@@H]2O[C@H](CO)[C@@H](O)[C@H]2O)n1,109,4 µg/mL,inhibition,HEP-2,Respiratory syncytial virus,plaque count,,75%
O=c1c(O)c(-c2ccc(O)cc2)oc2cc(O)cc(O)c12,SA-11,,EC50,VERO,Rotavirus A,,,>10 µg/mL
CO[C@@H]1C[C@@H](C[C@H]2CC[C@H](C)[C@H]([C@@H](C)C(=O)O)O2)O[C@]2(O[C@](C)([C@H]3CC[C@@](C)([C@@H]4O[C@@H]([C@H]5O[C@@](O)(CO)[C@H](C)C[C@@H]5C)C[C@@H]4C)O3)C[C@H]2C)[C@@H]1C,RH,0.005 µg/mL,inhibition,,Toxoplasma gondii,uracil uptake / radiometric,,0%
Nc1cc2[nH]cnc2c(=O)[nH]1,S-2,,EC50,HeLa,Respiratory syncytial virus,cytopathic effect,,1.6 µg/mL
Nc1ncnc2c1ncn2CCOCP(=O)(O)O,TYPE 3,,MIC,,Adenovirus,,,>100 µg/mL
N=C(N)c1ccc(N2CCCN(c3ccc(C(=N)N)cc3)CC2)cc1,,,EC50,A549,Pneumocystis carinii,,,0.835 µg/mL
COc1ccc([Se][Se]c2ccc(OC)cc2)cc1,,,MFC,,Candida dubliniensis,broth dilution,,16–64 µg/mL
CCC[C@@H]1C[C@@H](C(=O)N[C@@H]([C@H]2O[C@H](SC)[C@H](O)[C@@H](O)[C@H]2O)[C@H](C)Cl)N(C)C1,KOS,,EC50,HeLa,Herpes simplex virus 1,cytopathic effect,,>100 µg/mL
OC[C@H]1O[C@@H](n2cnc3cc(Cl)c(Cl)cc32)[C@@H](O)[C@@H]1O,,,EC50,HeLa,Sindbis virus,cytopathic effect,,>200 µg/mL
C[C@@H]1CN(c2c(F)c(N)c3c(=O)c(C(=O)O)cn(C4CC4)c3c2F)C[C@H](C)N1,Clinical isolate 6678,,MIC,,Streptococcus pneumoniae,,,0.5 µg/mL
Nc1ccn(C[C@@H](CO)OCP(=O)(O)O)c(=O)n1,KOS ACV-resistant,,EC50,HEL,Herpes simplex virus 1,cytopathic effect,,0.29 µg/mL
O=c1cnn([C@@H]2O[C@H](CO)[C@@H](O)[C@H]2O)c(=O)[nH]1,TYPE 2 (NGC),,EC50,VERO,Dengue virus,cytopathic effect,,0.2 µg/mL
O[C@H]1[C@@H](O)COC(n2cnc3cc(Cl)c(Cl)cc32)[C@@H]1O,TYPE 3,,EC50,HeLa,Parainfluenza virus,cytopathic effect,,>400 µg/mL
Nc1nc(N)c2ncn(CCOCP(=O)(O)O)c2n1,WILD TYPE,,EC50,C1271,Mouse cytomegalovirus,plaque count,,0.3 µM
CC(C)=CCN1c2cc(Cl)cc3[nH]c(=S)n(c23)C[C@@H]1C,,,EC95,MT-4,HIV-1,,RT-M41L T215Y Y181C,>3 µM
COc1ccc(-c2cc(=O)c3c(O)cc(O)cc3o2)cc1,SA-11,,EC50,VERO,Rotavirus A,,,>20 µg/mL
O=C(OC1Cc2c(O)cc(O)cc2OC1c1cc(O)c(O)c(O)c1)c1cc(O)c(O)c(O)c1,Clinical isolate 6,,MIC50,,Candida tropicalis,broth dilution,,>128 µg/mL
CCCCC/C=C\C/C=C\C/C=C\C/C=C\CCCC(=O)O,KOS,,EC50,HeLa,Herpes simplex virus 1,cytopathic effect,,>200 µg/mL
Nc1ccn(C[C@@H](CO)OCP(=O)(O)O)c(=O)n1,PFA-resistant/B,,EC50,HEL,Varicella zoster virus,plaque count,,0.078 µg/mL
C[C@H](Cn1cnc2c(N)ncnc21)OCP(=O)(O)O,Recombinant,,EC50,HeLa,HIV-1,luciferase,RT-M184V,0.5555 µM
COc1ccc2c(O[C@@H]3C[C@H]4C(=O)N[C@]5(C(=O)NS(=O)(=O)C6CC6)C[C@H]5/C=C\CCCCN(C)C(=O)[C@@H]4C3)cc(-c3nc(C(C)C)cs3)nc2c1C,HK6a,,EC50,Huh7.5,Hepatitis C virus,antigen,,0.096 µM
C[C@H](Cn1cnc2c(N)nc(N)nc21)OCP(=O)(O)O,GS,,EC50,HSB-2,Human herpesvirus 6,cytopathic effect,,>300 µM
CC(C)[Si]1(C(C)C)OC[C@H]2O[C@@H](n3cnc4cc(Cl)c(Cl)cc43)[C@@H](O)[C@H]2O[Si](C(C)C)(C(C)C)O1,,,EC50,HeLa,Sindbis virus,cytopathic effect,,>10 µg/mL
Cc1cc(S(N)(=O)=O)ccc1NC(=O)COc1ccc(Cl)cc1C(=O)c1cc(Cl)cc(C#N)c1,NNRTI-resistant (RT Y181C),,EC50,MAGI,HIV-1,β-galactosidase,RT-Y181C,0.0007 µM
Nc1nccc2c1ncn2C[C@H]1COP(=O)(O)CO1,GS,,EC50,HSB-2,Human herpesvirus 6,cytopathic effect,,3.6 µM
Nc1nc(N)c2ncn(CCOCP(=O)(O)O)c2n1,TYPE 2,,MIC,,Adenovirus,,,>100 µg/mL
c1ccc2c(c1)oc1ccccc12,TYPE 14,,EC50,HELA-H1,Rhinovirus,cytopathic effect,,>200 µM
C[C@H](COc1cc(N)nc(N)n1)OCP(=O)(O)O,,,EC50,,Sindbis virus,cytopathic effect,,>180 µM
O=C(O)c1cc2oc3ccccc3c2cc1O,TYPE 16,100 µM,inhibition,HELA-H1,Rhinovirus,plaque count,,100%
OC[C@H]1O[C@H](n2cnc3cc(Cl)c(Cl)cc32)[C@@H](O)[C@H]1O,,,EC50,HeLa,Sindbis virus,cytopathic effect,,>200 µg/mL
CCCOc1ccc2nc(NC(=O)OC)[nH]c2c1,ATCC 14116,,EC50,,Cryptococcus neoformans,,,<2.1 µg/mL
C#C[C@]1(CO)O[C@@H](n2cnc3c(N)nc(F)nc32)CC1O,ROD9,,fold resistance,MAGIC-5A,HIV-2,β-galactosidase / absorbance,K65R M184V,19
COC(=O)Nc1nc2ccc(Sc3ccccc3)cc2[nH]1,IU8698,,EC50,,Cryptococcus neoformans,,,<0.014 µg/mL
Nc1nc(NC2CC2)c2ncn([C@H]3C=C[C@@H](CO)C3)c2n1,Recombinant,,EC50,HeLa,HIV-1,luciferase,RT-M41L S68N G112S M184V,2.3 µM
C=CCc1ccc(O)c(-c2ccc(O)c(CC=C)c2)c1,YL 325,,MIC,,Candida albicans,broth dilution,,128 µg/mL
C=C(C)CN(CC)c1c([N+](=O)[O-])cc(C(F)(F)F)cc1[N+](=O)[O-],Oryzalin-resistant,,EC50,,Toxoplasma gondii,,,5 µM